System: Mycobacterium tuberculosis H37Rv growth inhibition, no glycerol
Test: Confirmatory growth inhibition assay, Mycobacterium tuberculosis H37Rv, absence of glycerol (AID 449764);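 note: growth read after 7 days of incubation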
Settings: measured here: IC90 growth inhibition

Compound: O=C(OC1CN2CCC1CC2)C1c2ccccc2Oc2ccccc21 (stereo unspecified)
- IC90: 28.3 µM
